What all share (experiment): cell-based or functional assay
Experiment [1] concerns the target mouse Nav1.4 voltage-gated sodium channel (mouse), Q9ER60.
The target of experiment [2] is rat Nav1.7 voltage-gated sodium channel (rat), O08562.
Experiment [3] addresses mouse Nav1.7 voltage-gated sodium channel (mouse), Q62205.
The target of experiment [4] is T1, human Nav1.7 voltage-gated sodium channel (human), Q15858.
Experiment [5] concerns the target human Nav1.6 voltage-gated sodium channel (human), Q9UQD0.
Experiment [6] concerns the target T1, human Nav1.7 voltage-gated sodium …. The source holds these as a separate data set.
Experiment [7] concerns the target human voltage-gated sodium channel Nav1.7 (human), Q15858.
Experiment [8] deals with human voltage-gated sodium channel Nav1.3 (human), Q9NY46.
Experiment [9] concerns the target human voltage-gated sodium channel Nav1.4 (human), P35499.
Experiment [10] has as its target human voltage-gated sodium channel Nav1.5 (human), Q14524.

Where two headings read alike, the source gives them in different places.

With GYCQKWLWTCDSERACCKGLRCKLWCRKII (modifications not checked) [Pra-[Nle6;Glu12;Lys17]JzTx-V(1-29)], in [1], the PX mNav1.4 Tonic IC50 was determined as 2.77 nM and the mNav1.4/mNav1.7 was determined as 2.2. In [2], this molecule yielded a PX rNav1.7 Tonic IC50 of 0.653 nM and a rNav1.7/hNav1.7 of 0.35. In experiment [3], the PX mNav1.7 Tonic IC50 was 1.27 nM and the mNav1.7/hNav1.7 stood at 0.68. The same molecule returned a PX hNav1.7 Tonic IC50 in [4] of 1.87 nM.
In [2], EGCQKWLWTCDSKRECCEGLRCKLWCRKEI (modifications not checked) [Glu-[Pra1;Nle6;Glu14,28]JzTx-V(1-29)] had a PX rNav1.7 Tonic IC50 of 3.34 nM and a rNav1.7/hNav1.7 of 5.94. In experiment [3], this molecule yielded a PX mNav1.7 Tonic IC50 of 16.1 nM and a mNav1.7/hNav1.7 of 28.6. For the same molecule, the PX hNav1.7 Tonic IC50 in experiment [4] stood at 0.563 nM.
AYCQKWLWTCDSKRKCCEGLRCKLWCRKEI (modifications not checked) [CyA-[Nle6,Lys(Pra)14,Glu28]JzTx-V(1-29)] came in with a PX mNav1.4 Tonic IC50 in experiment [1] of 62.8 nM. This molecule also showed a PX rNav1.7 Tonic IC50 in experiment [2] of 2.73 nM. In experiment [3], this molecule yielded a PX mNav1.7 Tonic IC50 of 9.79 nM. In addition, the PX hNav1.7 Tonic IC50 in experiment [4] and in experiment [6] was 1.59 nM in each case. The same molecule yielded a PX hNav1.6 Tonic IC50 in experiment [5] of 250 nM.
In the case of GYCQKWLWTCDSKRACCEGLRCKGWCRKEI (modifications not checked) [Pra-[Nle6;Chg23;Glu28]JzTx-V(1-29)], in experiment [2], the PX rNav1.7 Tonic IC50 came out at 3.27 nM and the rNav1.7/hNav1.7 was 6.68. Also, in experiment [3], the PX mNav1.7 Tonic IC50 came to 0.884 nM and the mNav1.7/hNav1.7 amounted to 1.81. Moreover, the PX hNav1.7 Tonic IC50 in experiment [4] is 0.489 nM.
In experiment [1], GYCQKWLWTCDEKRACCEGLRCKLWCRKEI (modifications not checked) [Pra-[Nle6;Glu11,28]JzTx-V(1-29)] displayed a PX mNav1.4 Tonic IC50 of 565 nM and a mNav1.4/mNav1.7 of 34. Also, in [2], the PX rNav1.7 Tonic IC50 is 1.5 nM and the rNav1.7/hNav1.7 is 0.95. In experiment [3], the PX mNav1.7 Tonic IC50 stood at 16.7 nM and the mNav1.7/hNav1.7 is 10.6. Further, the PX hNav1.7 Tonic IC50 in experiment [4] is 1.58 nM. The molecule also registered a PX hNav1.6 Tonic IC50 in experiment [5] of 1160 nM. Also, the PX hNav1.7 Tonic IC50 in experiment [6] stood at 1.58 nM.
With AYCQKWLWTCDSKRACCGGLRCKLWCRKEI (modifications not checked) [CyA-[Nle6,Pra17,Glu28]JzTx-V(1-29)], in experiment [1], the PX mNav1.4 Tonic IC50 was 32.2 nM and the mNav1.4/mNav1.7 is 6.7. In experiment [2], this molecule gave a PX rNav1.7 Tonic IC50 of 1.41 nM and a rNav1.7/hNav1.7 of 1.81. In [3], the PX mNav1.7 Tonic IC50 is 4.8 nM and the mNav1.7/hNav1.7 is 6.16. In experiment [4], this molecule yielded a PX hNav1.7 Tonic IC50 of 0.779 nM. Also, the PX hNav1.6 Tonic IC50 in experiment [5] was found to be 73.2 nM. In [6], this molecule returned a PX hNav1.7 Tonic IC50 of 0.779 nM.
AYCQKWLWTCDSKRACCAGLRCKLWCRKEI (modifications not checked) [CyA-[Nle6,Atz(NPEG10)17,Glu28]JzTx-V(1-29)]: in experiment [2], the PX rNav1.7 Tonic IC50 amounted to 5.45 nM and the rNav1.7/hNav1.7 stood at 0.46. In experiment [3], this molecule came in with a PX mNav1.7 Tonic IC50 of 26.1 nM and a mNav1.7/hNav1.7 of 2.23. Moreover, the PX hNav1.7 Tonic IC50 in [4] is 11.7 nM.
Regarding AYCQKWLWTCDSKRACCAGLRCKLWCRKEI (modifications not checked) [Homodimeric Peptide No. 8], in experiment [2], the PX rNav1.7 Tonic IC50 amounted to 2.1 nM and the rNav1.7/hNav1.7 was determined as 3.09. In experiment [3], this molecule had a PX mNav1.7 Tonic IC50 of 0.593 nM and a mNav1.7/hNav1.7 of 0.87. Moreover, the PX hNav1.7 Tonic IC50 in [4] was 0.679 nM. Further, in [6], the Nav1.7 PX IC50 is 0.679 nM.
In [1], GYCQKWLWTCDSERACCKGLRCKLWCRKEI (modifications not checked) [Pra-[Nle6;Glu12,28;Lys17]JzTx-V(1-29)] gave a PX mNav1.4 Tonic IC50 of 63 nM and a mNav1.4/mNav1.7 of 14. In experiment [2], the PX rNav1.7 Tonic IC50 turned out to be 2.01 nM and the rNav1.7/hNav1.7 turned out to be 0.23. In experiment [3], this molecule returned a PX mNav1.7 Tonic IC50 of 4.4 nM and a mNav1.7/hNav1.7 of 0.5. Besides, the PX hNav1.7 Tonic IC50 in [4] is 8.76 nM.
In experiment [1], GYCQKWLWTCDSERACCEGLRCKLWCRKEI (modifications not checked) [Pra-[Nle6;Glu12,28]JzTx-V(1-29)] gave a PX mNav1.4 Tonic IC50 of 548 nM and a mNav1.4/mNav1.7 of 34. For the same molecule, in [2], the PX rNav1.7 Tonic IC50 came out at 2.66 nM and the rNav1.7/hNav1.7 came to 1.54. In experiment [3], this molecule came in with a PX mNav1.7 Tonic IC50 of 16.2 nM and a mNav1.7/hNav1.7 of 9.37. Besides, the PX hNav1.7 Tonic IC50 in experiment [4] is 1.73 nM. The molecule also yielded a PX hNav1.6 Tonic IC50 in experiment [5] of 877 nM. This molecule gave a PX hNav1.7 Tonic IC50 in [6] of 1.73 nM.
Turning to ACQKWMWTCDSKRACCEGLRCKLWCRKII (modifications not checked) [[1-Nal1]JzTx-V(1-29)], the IC50 (IonWorks Quattro) worked out at 8 nM in experiment [7], 70 nM in experiment [8], 90 nM in [9] and 2300 nM in experiment [10].
On the same counts, the results for ACQKWMWTCDSKRACCEGLRCKLWCRKII (modifications not checked) [[Ala1]JzTx-V(1-29)] are 4 nM, 40 nM, 70 nM and 3100 nM.
Turning to YCQKWLWTCDSKRGCCEGLRCKLWCRKII (modifications not checked) [[Nle6,Pra14]JzTx-V(1-29)], the IC50, IonWorks Quattro electrophysiology was 0.07 µM in experiment [7], 0.06 µM in experiment [8], 0.09 µM in experiment [9] and > 7 µM in experiment [10]. Moreover, in experiment [9], the Nav1.4/Nav1.7 (ratio of IC50) was 1 fold.
For the molecule AYCQKWLWTCDGKRACCEGLRCKLWCRKEI (modifications not checked) [CyA-[Nle6;Pra11;Glu28]JzTx-V(1-29)], in experiment [2], the PX rNav1.7 Tonic IC50 was 2.24 nM and the rNav1.7/hNav1.7 was 11.6. In [3], this molecule showed a PX mNav1.7 Tonic IC50 of 4.04 nM and a mNav1.7/hNav1.7 of 20.9. In [4], this molecule returned a PX hNav1.7 Tonic IC50 of 0.193 nM.
For the molecule KAYCQKWLWTCDSKRKCCEGLRCKLWCRKEI (modifications not checked) [Homodimeric Peptide No. 9], the PX rNav1.7 Tonic IC50 in experiment [2] was 3.6 nM. The PX mNav1.7 Tonic IC50 in experiment [3] amounted to 5.32 nM. The molecule further gave a PX hNav1.7 Tonic IC50 in [4] of 1.32 nM. Also, in [6], the Nav1.7 PX IC50 was found to be 1.32 nM.
In the case of YCQKWLWTCDGKRACCEGLRCKLWCRKEI (modifications not checked) [[Nle6;Pra11;Glu28]JzTx-V(1-29)], in [2], the PX rNav1.7 Tonic IC50 was determined as 3.83 nM and the rNav1.7/hNav1.7 worked out at 8.1. In experiment [3], this molecule yielded a PX mNav1.7 Tonic IC50 of 3.69 nM and a mNav1.7/hNav1.7 of 7.81. In addition, in experiment [4], the PX hNav1.7 Tonic IC50 turned out to be 0.473 nM.

The values above are taken from patent US20160024159A1, “Potent and selective inhibitors of Nav1.7” (published 2016).
